Data taken from PMC4624681, “TIM-1 acts a dual-attachment receptor for Ebolavirus by interacting directly with viral GP and the PS on the viral envelope” (2015).

Target: T1, Ig V domain of human T-cell immunoglobulin and mucin domain protein 1 (hTIM-1), human, Q96D42 22-127
T1 sequence: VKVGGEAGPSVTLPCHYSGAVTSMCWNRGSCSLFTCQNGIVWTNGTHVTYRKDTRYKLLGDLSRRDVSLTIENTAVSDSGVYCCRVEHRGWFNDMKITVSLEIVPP
Experiment: SPR; deglycosylated GP

## deglycosylated Zaire GP (1–320)
  Kd: 48.5 µM
